The values below come from ChEMBL document CHEMBL1268892, “Antidotes to anthrax lethal factor intoxication. Part 1: Discovery of potent lethal factor inhibitors with in vivo efficacy” (Bioorg Med Chem Lett, 2010).

A short description of assay [1]: Selectivity for Bacillus anthracis lethal factor over MMP1.
Assay [2] is described as follows: Selectivity for Bacillus anthracis lethal factor over MMP9.
Assay [3] can be described thus: Selectivity for Bacillus anthracis lethal factor over MMP14.
Assay [4] can be described thus: Selectivity for Bacillus anthracis lethal factor over MMP12.
The test system of assay [5] is Rattus norvegicus. The assay is described as follows: Inhibition of lethal factor-induced toxicity in Fischer 344 rat assessed as increase in median survival time at 10 mg/kg, iv relative to control.
Assay [6] can be described thus: Selectivity for Bacillus anthracis lethal factor over MMP3.

The source made the active and inactive calls. The rule behind the calls is not given here.

With `CO[C@H](C[C@H](CCN1CCCC(CO)C1)C(=O)NO)c1ccc(F)cc1` (some centres undefined), the fold change (FC) in assay [1], in assay [2], in assay [3], in assay [4] and in assay [6] was more than 500 throughout. Further, in assay [5], the inhibition result was “Active”.
For `CO[C@H](C[C@H](CCN(C)CCCc1ccc(F)c(C)c1)C(=O)NO)c1ccc(F)cc1`, the fold change (FC) in assay [1], in assay [2], in assay [3], in assay [4] and in assay [6] was more than 500 in each case. Further, the inhibition entry in assay [5] is “Active”.
For `Cc1cc(N[C@H](CCCCNCc2ccc(F)cc2)C(=O)NO)cc(C)c1F`, the fold change (FC) in assay [1], in assay [2], in assay [3], in assay [4] and in assay [6] was more than 500 in each case.
Consider `Cc1cc(N[C@H](CCCCNCCc2ccc(F)cc2)C(=O)NO)cc(C)c1F`, for which the fold change (FC) in assay [1], in assay [2], in assay [3], in assay [4] and in assay [6] was more than 500 each time.
For `Cc1cc(CNCCCC[C@@H](Nc2cc(C)c(F)c(C)c2)C(=O)NO)ccc1F`, the fold change (FC) in assay [1], in assay [2], in assay [3], in assay [4] and in assay [6] was more than 500 throughout.
On to `Cc1cc(S(=O)(=O)NCCCC[C@@H](Nc2cc(C)c(F)c(C)c2)C(=O)NO)ccc1F`, for which the fold change (FC) in assay [1], in assay [2], in assay [3], in assay [4] and in assay [6] was more than 500 in each case. Besides, in assay [5], the inhibition entry was “Active”.
In the case of `Cc1cc(C(=O)NCCCC[C@@H](Nc2cc(C)c(F)c(C)c2)C(=O)NO)ccc1F`, the fold change (FC) in assay [1], in assay [2], in assay [3], in assay [4] and in assay [6] was more than 500 throughout. Moreover, the inhibition result in assay [5] was “inactive”.
